## PSTVd loop 15 mutant pool in Nicotiana benthamiana

Region: loop 15 of PSTVd (intermediate strain), upper and lower strand joined, each 5' to 3', the first 7 letters being the upper strand, closing pairs included. Wild type: GGAAACCGCUACUAC. Varied positions (N): GGAAACCGNNNNNNC.

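A pool of all variants was put on leaves of three Nicotiana benthamiana plants. Samples came from the inoculated region at 5 days, the leaf margin at 10 and upper systemic leaves at 12.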

Numbers give reads per thousand; 0 = not seen among the reads, higher = more abundant. Each value is the mean of three plants. "Pool" is the share in the plasmid pool used as inoculum, on the same scale. The inoculated region was read from the minus strand, the other sites from the plus strand. IR is the inoculated region, LM the leaf margin, Sys the systemic leaves. For reference, wild type rose from 33.9 per thousand in the pool to 202, 200, 159 (inoculated region), 724, 746, 710 (leaf margin) and 856, 883, 880 (systemic leaves). With 43,870-66,106 reads a sample, very low values are single reads. The authors trace changes outside the varied positions to PCR and sequencing errors or to mutation in the plant; presence does not show that a variant is infectious alone.

sequence	pool	IR	LM	Sys
GGAAACCGAUUGAGC	0.256	0.106	0	0
GGAAACCGCUCUAAC	0.240	0.147	0.0128	0.0104
GGAAACCGUGAUAGC	0.256	0.0937	0.00668	0.00537
GGAAACCGCGGCCCC	0.224	0.0633	0	0
GGAAACCGCGACGGC	0.384	0.147	0.0249	0.0158
GGAAACCGGCCUCUC	0.176	0.129	0.0275	0
GGAAACCGAAAGUAC	0.240	0.319	0.0672	0.0376
GGAAACCGCGUGAUC	0.240	0.129	0.00539	0.00760
GGAAACCGUAUGGAC	0.144	0.120	0.00539	0
GGAAACCGGUAUACC	0.176	0.0900	0.0175	0
GGAAACCGGCAUAGC	0.128	0.0980	0.00668	0
GGAAACCGGUUGCCC	0.256	0.106	0	0
GGAAACCGGACGUCC	0.192	0.0909	0.00539	0
GGAAACCGACCAAUC	0.288	0.0956	0.00668	0
GGAAACCGUAAUAAC	0.272	0.265	0.108	0.0761
GGAAACCGGUCCUUC	0.192	0.109	0.0128	0
GGAAACCGGUGAAGC	0.304	0.0792	0.0128	0
GGAAACCGUUCCGGC	0.240	0.0795	0.00539	0
GGAAACCGCUAACUC	0.160	0.440	0.149	0.00537
GGAAACCGUAGAGGC	0.112	0.127	0.00668	0
GGAAACCGCCACCUC	0.208	0.306	0.0960	0
GGAAACCGCAUUCGC	0.112	0.109	0	0
GGAAACCGCCAGUCC	0.176	0.405	0.138	0.0430
GGAAACCGAAUUGAC	0.224	0.0768	0.0128	0
GGAAACCGCUGUAGC	0.176	0.0838	0.00668	0
GGAAACCGUGAAGCC	0.192	0.107	0.0128	0
GGAAACCGAAAUUGC	0.256	0.316	0.169	0.0161
GGAAACCGCCAUCUC	0.208	0.0759	0.0134	0
GGAAACCGUGAAAGC	0.288	0.0904	0.0208	0
GGAAACCGAAACAGC	0.176	0.103	0.0200	0
GGAAACCGGUACGAC	0.192	0.0914	0	0.00504
GGAAACCGGCUUUUC	0.176	0.122	0.0175	0
GGAAACCGGGCACUC	0.208	0.0739	0.0134	0
GGAAACCGAAAAUUC	0.304	0.305	0.148	0.0660
GGAAACCGAAGCUCC	0.336	0.0739	0.0162	0
GGAAACCGAUUCCGC	0.336	0.184	0.0249	0.00537
GGAAACCGACGCUGC	0.288	0.0786	0.00668	0.00537
GGAAACCGGCCAAGC	0.0640	0.112	0	0
GGAAACCGACUUCAC	0.288	0.124	0.0195	0
GGAAACCGAACAAAC	0.288	0.0857	0.00668	0
GGAAACCGGAAGAUC	0.160	0.123	0.00668	0
GGAAACCGCUAUGGC	0.144	0.117	0.0108	0
GGAAACCGGAGGUCC	0.352	0.0731	0.0121	0
GGAAACCGGCGUUAC	0.176	0.0740	0.00668	0.00537
GGAAACCGUGCUGGC	0.288	0.0640	0.0187	0.0183
GGAAACCGAAGGCCC	0.224	0.0803	0.00539	0
GGAAACCGGCCGGCC	0.192	0.104	0.00539	0
GGAAACCGAACUAGC	0.192	0.0859	0.0208	0
GGAAACCGAGCUCCC	0.304	0.0852	0.0195	0
GGAAACCGCUGGCCC	0.256	0.0850	0.0108	0
GGAAACCGGGCAGAC	0.272	0.141	0.0121	0

From the data files of Wu et al. 2024, doi:10.1371/journal.ppat.1012142.